The assay concerns the target HIV gp120 envelope glycoprotein, membrane-bound (HIV-1 (HXB2 clone)) (UniProt P04578). Briefly: cell-based or functional assay.

The values below come from patent US6407221.

Take “CD4-zeta chimeric receptor F2 (from UniProt P01730 26-395; P20963 8-30; P20963 52-163)”: the IL2 (pg/ml), Jurkat clone F2/1A11 coincubated with env-expressing 293 cells #13 is 222 pg/mL; the IL2 (pg/ml), Jurkat clone F2/1A11 coincubated with env-expressing 293 cells #18 amounted to 206 pg/mL; the IL2 (pg/ml), Jurkat clone F2/1D1 coincubated with env-expressing 293 cells #13 was found to be 81 pg/mL; the IL2 (pg/ml), Jurkat clone F2/1D1 coincubated with env-expressing 293 cells #18 is 95 pg/mL.

On to “CD4-zeta chimeric receptor F3 (from UniProt P01730 26-396; P01730 372-395; P20963 52-163)”, for which the IL2 (pg/ml), Jurkat clone F3/2.2 coincubated with env-expressing 293 cells #13 came out at 18 pg/mL; the IL2 (pg/ml), Jurkat clone F3/2.2 coincubated with env-expressing 293 cells #18 amounted to 28 pg/mL; the IL2 (pg/ml), Jurkat clone F3/2.7 coincubated with env-expressing 293 cells #13 came out at 3 pg/mL; the IL2 (pg/ml), Jurkat clone F3/2.7 coincubated with env-expressing 293 cells #18 stood at 6 pg/mL. The specific lysis of Raji-gp120 targets by NK3.3 cells that carry the chimeric receptor, 51Cr release, effector:target 0.4:1 (% specific lysis above background) is 20.
